Test results published in PubChem BioAssay AID1476 (National Center for Advancing Translational Sciences (NCATS), 2009).
Several values for one entry are separate records, joined by “and”; a condition that tells them apart may be missing. Equal entries are not always repeated. Only a part is listed here, and it is no random draw. Results filed as inconclusive are left out. Activity calls are given as the source filed them. Calls come from the whole dose curve; as a rule, active = well fitted inhibition curve with a large enough effect; inconclusive = small, poorly fitted or top-dose-only effect, or effect the other way; inactive = flat fitted curve, though single readings scatter.

By UniProt entry, the sequences of proteins in these tests, tags left out. Residues count along the entry.
UniProt P25779, 123-467 limits assumed: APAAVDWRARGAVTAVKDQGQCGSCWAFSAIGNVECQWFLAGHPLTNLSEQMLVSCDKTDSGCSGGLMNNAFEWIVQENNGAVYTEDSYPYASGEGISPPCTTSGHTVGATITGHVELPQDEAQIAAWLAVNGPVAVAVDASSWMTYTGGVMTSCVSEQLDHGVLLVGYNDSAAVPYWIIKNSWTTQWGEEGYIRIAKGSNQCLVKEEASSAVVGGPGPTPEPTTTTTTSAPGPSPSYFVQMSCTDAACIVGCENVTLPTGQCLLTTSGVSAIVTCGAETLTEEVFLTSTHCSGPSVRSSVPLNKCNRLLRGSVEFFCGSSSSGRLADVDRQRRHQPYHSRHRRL

Biological target: Cruzipain (Trypanosoma cruzi) (UniProt P25779)
Assay: qHTS Assay for Promiscuous and Specific Inhibitors of Cruzain (without detergent);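 note: plate controls were enzyme without inhibitor for no effect and buffer without enzyme for full effect; nearly all actives have a fitted effect of over 40% in size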
Settings: purified cruzain, Z-FR-AMC fluorescence, no detergent

Row | SMILES | max response, negative = inhibition
1 | C/C1=C2N=C(/C=C3N=C(/C(C)=C4\[N-][C@@](C)([C@H]5N=C1[C@@](C)(CCC(=O)NC[C@H](C)OP(=O)([O-])O[C@@H]1[C@H](O)[C@H](n6cnc7cc(C)c(C)cc76)O[C@@H]1CO)[C@@H]5CC(N)=O)[C@](C)(CC(N)=O)[C@H]4CCC(N)=O)[C@@](C)(CC(N)=O)[C@@H]\3CCC(N)=O)C(C)(C)[C@@H]/2CCC(N)=O.[C-]#N.[Co+3] | inactive: -5.07%
2 | CCOC(=O)c1ccc(NP(C)(=O)Oc2ccc(Cl)cc2)cc1 (centres undefined) | inactive: 9.26%
3 | CC(C)(C)c1ccc(OP(C)(=O)O)cc1 | inactive: -13.3%
4 | CP(=O)(Nc1ccc(Cl)cc1)Oc1ccc(F)cc1 (centres undefined) | inactive: 2.13%
5 | CN(C)C(=O)OCCc1n(C)cc[n+]1C | inactive: -10.6%
6 | O=C(CO)Nc1ccc([As](=O)(O)O)cc1 | inactive: 2.97%
7 | CC(=O)C1=CCCC2CCC1N2 (centres undefined) | inactive: -4.96%
8 | COc1ccc(OP(C)(=O)Nc2ccc(Br)cc2)cc1 (centres undefined) | inactive: 4.39%
9 | CCN(CC)CC(O)COC(=O)C(O)(c1ccccc1)C1CCCCC1 (centres undefined) | inactive: 3.54%
10 | N#[O+].[C-]#N.[C-]#N.[C-]#N.[C-]#N.[C-]#N.[Fe+2].[Na+].[Na+] | inactive: 1.88%
11 | OCCSCCO | inactive: 6.32%
12 | COc1ccccc1OP(C)(=O)Nc1c(C)n(C)n(-c2ccccc2)c1=O (centres undefined) | inactive: -2.4%
13 | O=[N+]([O-])c1cccc2n[nH]nc12 | inactive: -6.89%
14 | CC(=O)N1C2C3N(C(C)=O)C1C1N(C(C)=O)C(C(N1C(C)=O)N3C(C)=O)N2C(C)=O | inactive: 0.619%
15 | CCc1nc2c(n1)c1c(non1O)c1c2no[n+]1[O-] | inactive: -4.42%
16 | CP(=O)(Oc1ccccc1)N1CCOC1=O (centres undefined) | inactive: -7%
17 | CC(C)CC(=O)NC(Sc1ccc(Cl)cc1)C(Cl)(Cl)Cl (centres undefined) | inactive: 1.64%
18 | Cc1c(NP(C)(=O)Oc2ccc(C(C)C)cc2)c(=O)n(-c2ccccc2)n1C (centres undefined) | inactive: 6.64%
19 | O=C(NC(Sc1ccncn1)C(Cl)(Cl)Cl)c1ccccc1 (centres undefined) | inactive: 3%
20 | Oc1ccccc1CNc1ccccn1 | inactive: 9.27%
21 | COc1ccccc1OP(C)(=O)Nc1ccc(C)cc1C (centres undefined) | inactive: 7.14%
22 | CP(=O)(Nc1ccccn1)Oc1ccccc1 (centres undefined) | inactive: -10.3%
23 | CCc1ccc(OP(C)(=O)O)cc1 | inactive: 2.53%
24 | NCC[C@@H](N)CSP(=O)(O)O | inactive: 6.2%
25 | COc1ccc(OP(C)(=O)Nc2ccccn2)cc1 (centres undefined) | inactive: 9.98%

Row | SMILES | max response, negative = inhibition
26 | O=[N+]([O-])c1ccc(C[As](=O)(O)O)cc1 | inactive: 6.5%
27 | CN(C)CCOC(=O)C(O)(c1ccccc1)C1CCCC1 (centres undefined) | inactive: 1.79%
28 | CN1CCCC(OC(=O)C(c2ccccc2)c2ccccc2)C1 (centres undefined) | inactive: -2.85%
29 | Cc1nc2ccc3ccccc3c2o1.O=[N+]([O-])c1cc([N+](=O)[O-])c(O)c([N+](=O)[O-])c1 | inactive: -10.9%
30 | [N-]=[N+]=NCC(O)CN=[N+]=[N-] (centres undefined) | inactive: -8.18%
31 | CCN(N=Nc1nonc1N)c1nonc1N | inactive: -1.66%
32 | C(Cc1nn[nH]n1)c1nn[nH]n1 | inactive: 9.91%
33 | CN(C(=O)Cc1ccc(Cl)c(Cl)c1)[C@H]1CCCC[C@@H]1N1CCCC1 | inactive: 2.99% [middle of 6 runs]
34 | COc1ccccc1OP(C)(=O)Nc1ccc(C)c(C)c1 (centres undefined) | inactive: 3.15%
35 | CCOP(=O)(Nc1ccccc1)OCC | inactive: 0.588%
36 | Cc1cc(SC(NC(=O)c2ccc(F)cc2)C(Cl)(Cl)Cl)ncn1 (centres undefined) | inactive: -1.31%
37 | COc1ccc(OP(C)(=O)Nc2ccccc2Br)cc1 (centres undefined) | inactive: -1.69%
38 | CC(=O)NC(SC(=S)N(CC(C)C)CC(C)C)C(Cl)(Cl)Cl (centres undefined) | inactive: -3.27%
39 | COC(=O)c1cc2c(s1)N=C(c1ccccc1)N(C)P2(=O)N1CCOCC1 (centres undefined) | inactive: -7.97%
40 | CCN(CC)CCCOC(=O)C(O)(c1ccccc1)C1CCCCC1 (centres undefined) | inactive: -5.14%
41 | CCC(=O)N1C2C3N(C(=O)CC)C1C1N(C(=O)CC)C(C(N1C(=O)CC)N3C(=O)CC)N2C(=O)CC | inactive: 3.42%
42 | CN(C(=O)Cc1ccc(Cl)c(Cl)c1)[C@@H]1CCCC[C@@H]1N1CCCC1 | inactive: -11.2%
43 | CP(=O)(Nc1ccccc1)Oc1ccc(F)cc1 (centres undefined) | inactive: -6.04%
44 | CCOC(=O)NC(Sc1ccccc1)C(Cl)(Cl)Cl (centres undefined) | inactive: 1.27%
45 | Cc1cccc([N+](=O)[O-])c1[N+](=O)[O-] | inactive: -3.21%
46 | CCC(C)(OO)OOC(C)(CC)OO (centres undefined) | inactive: 5.58%
47 | CCOC(=O)c1ccc(NP(C)(=O)Oc2ccc(F)cc2)cc1 (centres undefined) | inactive: 1.65%
48 | O=C(OCCN1CCN(CCOCc2ccccc2)CC1)C(O)(c1ccccc1)c1ccccc1 | inactive: 12.7%
49 | O=P1(Nc2nc3ccc(Cl)cc3s2)COc2ccccc2O1 (centres undefined) | inactive: -0.054%
50 | CP(=O)(Nc1ccccc1F)Oc1ccccc1 (centres undefined) | inactive: -6.94%

Row | SMILES | max response, negative = inhibition
51 | CC(C)c1ccc(OP(C)(=O)Nc2ccc(SC(F)(F)F)cc2)cc1 (centres undefined) | inactive: 7.83%
52 | CP(=O)(Nc1ccc2c(c1)OCCO2)Oc1ccccc1 (centres undefined) | inactive: 1.03%
53 | CN1CCC[C@H](OC(=O)C(c2ccccc2)c2ccccc2)C1 | inactive: -0.458%
54 | C[C@@H](O)COc1ccc([As](=O)(O)O)cc1N | inactive: 13.8%
55 | [NH4+].[O-][Cl+3]([O-])([O-])[O-] | inactive: -1.28%
56 | CCN(CCCl)Cc1ccccc1C | inactive: -1.59%
57 | Cc1ccccc1NP(C)(=O)Nc1ccccc1C | inactive: 5.04%
58 | NNC(NN)NN.n1nc(-c2nn[nH]n2)n[nH]1 | inactive: -11.4%
59 | CC(C)C(=O)NC(Sc1ccccc1)C(Cl)(Cl)Cl (centres undefined) | inactive: 7.06%
60 | O=P(Nc1nccs1)(c1ccccc1)c1ccccc1 | inactive: -9.71%
61 | CCOP(C)(=S)SCC(=O)NC(C)(CC)C(=O)O (centres undefined) | inactive: 2.49%
62 | CCOP(=O)(CC)OCC | inactive: -4.64%
63 | c1nnnn1CCn1cnnn1 | inactive: 1.61%
64 | CC(=O)NC(SC(=S)N(C)C)C(Cl)(Cl)Cl (centres undefined) | inactive: -7.96%
65 | Cc1ccc([N+](=O)[O-])c([N+](=O)[O-])c1 | inactive: -2.06%
66 | Cc1c([N+](=O)[O-])cccc1[N+](=O)[O-] | inactive: -3.41%
67 | C(Cc1nn[nH]n1)Cc1nn[nH]n1 | inactive: 12.7%
68 | O=C(OC1CN2CCC1CC2)c1cccc(Cl)c1 (centres undefined) | inactive: 2.2%
69 | COc1ccc(OP(C)(=O)Nc2cccc(Br)c2)cc1 (centres undefined) | inactive: -1.84%
70 | CN(C)CCOC(=O)C(O)(c1ccccc1)C1CCCCC1 (centres undefined) | inactive: -5.67%
71 | [N-]=[N+]=Nc1ccc([As](=O)(O)O)cc1 | inactive: 8.49%
72 | Cc1cc([N+](=O)[O-])cc([N+](=O)[O-])c1O | inactive: -17.6%
73 | O=P1(Nc2ncccn2)COc2ccccc2OC1 | inactive: -11.4%
74 | COc1ccccc1OP(C)(=O)Nc1c(C)cccc1C (centres undefined) | inactive: -2.45%
75 | CN1CCCCC1COC(=O)C1(O)c2ccccc2CCc2ccccc21 (centres undefined) | inactive: -12.3%

Row | SMILES | max response, negative = inhibition
76 | O=P1(Nc2ccc(Br)cn2)COc2ccccc2OC1 | inactive: 1.39%
77 | Cc1ccc(OCC(=O)OC2CN3CCC2CC3)cc1 (centres undefined) | inactive: 2.39%
78 | CP(=O)(Nc1ccc(SC(F)(F)F)cc1)Oc1ccccc1 (centres undefined) | inactive: 12.7%
79 | COc1cc(C2NCCC3(OCCO3)C2(C)C)cc(OC)c1OC.O=[N+]([O-])c1cc([N+](=O)[O-])c(O)c([N+](=O)[O-])c1 (centres undefined) | inactive: -2.26%
80 | Cc1nc2ccc3ccccc3c2s1.O=[N+]([O-])c1cc([N+](=O)[O-])c(O)c([N+](=O)[O-])c1 | inactive: -10%
81 | CN(C(=O)Cc1ccc(Cl)c(Cl)c1)[C@@H]1CCCC[C@H]1N1CCCC1 | inactive: 9.31%
82 | CN(CCCl)Cc1cc(Cl)c(NC2=NCCN2)c(Cl)c1 | inactive: -2.93%
83 | O=P1(Nc2ccccn2)COc2ccccc2OC1 | inactive: 5.92%
84 | Clc1n[nH]nc1-c1nn[nH][15n]1 | inactive: -7.38%
85 | Cc1ccc(C)c(NP(C)(=O)Oc2ccccc2)c1 (centres undefined) | inactive: 0.685%
86 | O=C(CC(=O)c1ccccc1)O[C@H]1CN2CCC1CC2 | inactive: 0.583%
87 | NS(=O)(=O)Cc1ccc([As](=O)(O)O)cc1 | inactive: -3.78%
88 | Cc1cc(C)cc(OP(C)(=O)Nc2ccccn2)c1 (centres undefined) | inactive: -1.09%
89 | CCOP(=O)(Nc1cccc2ccccc12)OCC | inactive: -1.66%
90 | CN(C(=O)Cc1ccc(Cl)c(Cl)c1)[C@@H]1CC[C@]2(CCCO2)C[C@H]1N1CCCC1 | inactive: 12.9%
91 | CCOC(=O)c1ccc(NP(C)(=O)Oc2cc(C)cc(C)c2)cc1 (centres undefined) | inactive: 17%
92 | Cc1cc(C)cc(OP(C)(=O)Nc2ccc(C)cc2C)c1 (centres undefined) | inactive: 1.88%
93 | Cc1cccc(OCC(=O)OC2CN3CCC2CC3)c1 (centres undefined) | inactive: -1.25%
94 | O=[N+]([O-])CC(O)c1ccc([N+](=O)[O-])cc1 (centres undefined) | inactive: 7.48%
95 | NC(=O)Nc1ccc([As](=O)(O)O)cc1 | inactive: 5.2% and inactive: -3.17%
96 | CC1=NCCc2c1[nH]c1ccccc21.O=[N+]([O-])c1cc([N+](=O)[O-])c(O)c([N+](=O)[O-])c1 | inactive: 6.71%
97 | O=[N+]([O-])c1ccc2c(c1)nnn2O | inactive: 5.91%
98 | CN(C(=O)Cc1ccccc1)[C@@H]1CC[C@]2(CCCO2)C[C@H]1N1CCCC1 | inactive: 14.7%
99 | CCOP1(=S)c2c(C)nn(CCC#N)c2N=C(c2ccc(F)cc2)N1C (centres undefined) | inactive: 27.3%
